Measured values published in patent US20140322196A1 (priority 2011, published 2014).

System: Influenza A/H1N1 (A/Roma-ISS/2/08 and A/Parma/24/09) and A/H3N2 (A/Parma/05/06)
Type: cell-based, Influenza A virus

B1: bLf: Lactoferrin from bovine milk, purchased from Morinaga Milk Industries, deprived of endotoxin (protein, UniProt P24627 20-708, looked up)
Lactotransferrin: APRKNVRWCTISQPEWFKCRRWQWRMKKLGAPSITCVRRAFALECIRAIAEKKADAVTLDGGMVFEAGRDPYKLRPVAAEIYGTKESPQTHYYAVAVVKKGSNFQLDQLQGRKSCHTGLGRSAGWIIPMGILRPYLSWTESLEPLQGAVAKFFSASCVPCIDRQAYPNLCQLCKGEGENQCACSSREPYFGYSGAFKCLQDGAGDVAFVKETTVFENLPEKADRDQYELLCLNNSRAPVDAFKECHLAQVPSHAVVARSVDGKEDLIWKLLSKAQEKFGKNKSRSFQLFGSPPGQRDLLFKDSALGFLRIPSKVDSALYLGSRYLTTLKNLRETAEEVKARYTRVVWCAVGPEEQKKCQQWSQQSGQNVTCATASTTDDCIVLVLKGEADALNLDGGYIYTAGKCGLVPVLAENRKSSKHSSLDCVLRPTEGYLAVAVVKKANEGLTWNSLKDKKSCHTAVDRTAGWNIPMGLIVNQTGSCAFDEFFSQSCAPGADPKSRLCALCAGDDQGLDKCVPNSKEKYYGYTGAFRCLAEDVGDVAFVKNDTVWENTNGESTADWAKNLNREDFRLLCLDGTRKPVTEAQSCHLAVAPNHAVVSRSDRAAHVKQVLLHQQALFGKNGKNCPDKFCLFKSETKNLLFNDNTECLAKLGGRPTYEEYLGTEYVTAIANLKKCSTSPLLEACAFLTR
B1 was tested. Which “SI (selectivity index) = CC50/EC50” value did it give?
Its value is “about 10^6”.

B2: C-lobe: bovine lactoferrin C-lobe as named in the text, without saying which of the two fragments of Table 2 (protein)
chain: YTRVVWCAVGPEEQKKCQQWSQQSGQNVTCATASTTDDCIVLVLKGEADALNLDGGYIYTAGKCGLVPVLAENRKSSKHSSLDCVLRPTEGYLAVAVVKKANEGLTWNSLKDKKSCHTAVDRTAGWNIPMGLIVNQTGSCAFDEFFSQSCAPGADPKSRLCALCAGDDQGLDKCVPNSKEKYYGYTGAFRCLAEDVGDVAFVKNDTVWENTNGESTADWAKNLNREDFRLLCLDGTRKPVTEAQSCHLAVAPNHAVVSRSDRAAHVKQVLLHQQALFGKNGKNCPDKFCLFKSETKNLLFNDNTECLAKLGGRPTYEEYLGTEYVTAIANLKKCSTSPLLEACAFLTR
modifications: bovine lactoferrin C-lobe peptide
For B2, which “SI relative to bLf” value is on record?
The value was 2.5-5 fold.
